Results of unrelated studies side by side (data: NIAID ChemDB).

All rows: enzyme or target tests; organism: HIV-1; protein: Protease; method: substrate cleavage; measure: IC50

Lines come from different laboratories, so protocols vary. An empty or dashed field is not shown. ICn is the concentration giving n% inhibition.

compound	conditions	value
COc1ccc(CN2CCN(C[C@@H](O)[C@H](Cc3ccccc3)NC(=O)[C@@H](NC(=O)OCc3csc(C)n3)C(C)C)[C@H](C(=O)NC(C)(C)C)C2)cc1OC	-	~0.0005 µM
O=C(N[C@@H](CC1CCCCC1)C(=O)NC(CO)NC(=O)[C@H](CC1CCCCC1)NC(=O)OCc1ccccc1)OCc1ccccc1	-	0.67 µM
CC(C)c1nc(CN(C)C(=O)N[C@@H](C(=O)NN(Cc2cccc(O)c2)C[C@H](O)[C@H](Cc2ccccc2)NC(=O)OCc2cncs2)C(C)C)cs1	-	0.0005 µM
CC(C)c1nc(CN(C)C(=O)N[C@H](C(=O)N[C@@H](Cc2ccccc2)[C@H](O)CN2CCN(Cc3cncs3)C[C@H]2C(=O)NC(C)(C)C)C(C)C)cs1	-	<0.0005 µM
CC(C)(C)OC(=O)NN(CC1CCCCC1)C[C@H](O)[C@H](Cc1ccccc1)NC(=O)OCc1ccccc1	-	0.038 µM
N[C@@H](Cc1ccccc1)C(=O)Cc1ccccc1	-	550 µM
CC[C@H](C)[C@H](NC(=O)[C@@H]1CCCN1C(=O)[C@H](O)[C@H](Cc1ccccc1)NC(=O)[C@H](CO)NC(=O)CCc1ccccc1)C(=O)N[C@H](C(N)=O)C(C)C	pH 5.75	>10 µM
CC(C)(C)OC(=O)NN(Cc1ccncc1)C[C@H](O)[C@H](Cc1ccccc1)NC(=O)OCc1ccccc1	-	0.104 µM
CC[C@H](C)[C@H](NC(=O)[C@@H]1CCCN1C(=O)[C@H](O)[C@H](Cc1ccccc1)NC(=O)[C@H](CC(N)=O)NC(=O)CCc1ccccc1)C(=O)N[C@H](C(N)=O)C(C)C	pH 5.75	3 µM
O=C(N[C@@H](Cc1ccccc1)C(=O)NC(CO)NC(=O)[C@H](Cc1ccccc1)NC(=O)OCC1c2ccccc2-c2ccccc21)OCC1c2ccccc2-c2ccccc21	-	0.44 µM
CC(C)c1nc(COC(=O)N[C@H](C(=O)N[C@@H](Cc2ccccc2)[C@H](O)CN2CCN(Cc3ccc4c(c3)OCO4)C[C@H]2C(=O)NC(C)(C)C)C(C)C)cs1	-	<0.0005 µM
CC(C)N(CC(=O)N(CC(=O)NC[C@@]1(O)C2C3C4C2[C@@](O)(CNC(=O)CN(Cc2ccccc2)C(=O)CN(C(=O)CN(C)C(=O)CSc2ncccn2)C(C)C)C2C1[C@H]3C[C@H]42)Cc1ccccc1)C(=O)CN(C)C(=O)CSc1ncccn1	-	1 µM
O=C(N[C@@H](Cc1ccccc1)C(=O)NC(CO)NC(=O)[C@@H](Cc1ccccc1)NC(=O)OCC1c2ccccc2-c2ccccc21)OCC1c2ccccc2-c2ccccc21	-	>10 µM
O=C(N[C@@H](CC1CCCCC1)C(=O)NC(CO)NC(=O)[C@H](CC1CCCCC1)NC(=O)OCC1c2ccccc2-c2ccccc21)OCC1c2ccccc2-c2ccccc21	-	0.55 µM
CC(C)(C)OC(=O)NN(Cc1ccoc1)C[C@H](O)[C@H](Cc1ccccc1)NC(=O)OCc1ccccc1	-	0.0038 µM
CC[C@H](C)[C@H](NC(=O)[C@@H]1CCCN1C(=O)[C@@H](O)[C@H](Cc1ccccc1)NC(=O)[C@H](CC(=O)O)NC(=O)[C@H](Cc1ccccc1)NC(=O)[C@@H](N)CO)C(=O)N[C@H](C(N)=O)C(C)C	pH 5.75	0.005 µM
CC(=O)N[C@@H](Cc1c[nH]c2ccccc12)C(=O)N[C@@H](CO)C(=O)N[C@@H](Cc1ccccc1)[C@H](O)[C@@H](O)[C@H](Cc1ccccc1)NC(=O)c1cc(=O)c2ccccc2[nH]1	-	4 µM
O=C(N[C@@H](Cc1ccccc1)C(=O)NC(CCO)NC(=O)[C@H](Cc1ccccc1)NC(=O)OCC1c2ccccc2-c2ccccc21)OCC1c2ccccc2-c2ccccc21	-	8.5 µM
COC(=O)[C@@H]1CCCN1C(=O)C(=O)C(Cc1ccccc1)NC(=O)OC(C)(C)C	-	7 µM
CC(C)(C)OC(=O)N[C@@H](Cc1ccccc1)C(=O)NC(CCO)NC(=O)[C@H](Cc1ccccc1)NC(=O)OC(C)(C)C	-	>10 µM
O=C(NC(CO)NC(=O)[C@@H]1Cc2ccccc2CN1C(=O)OCC1c2ccccc2-c2ccccc21)[C@@H]1Cc2ccccc2CN1C(=O)OCC1c2ccccc2-c2ccccc21	-	0.385 µM
CC(C)[C@H](NC(=O)c1cc(=O)c2ccccc2[nH]1)C(=O)N[C@@H](Cc1ccccc1)[C@H](O)[C@@H](O)[C@H](Cc1ccccc1)NC(=O)c1cc(=O)c2ccccc2[nH]1	-	4 µM
CC(C)(C)OC(=O)NN(CC1CCOCC1)C[C@H](O)[C@H](Cc1ccccc1)NC(=O)OCc1ccccc1	-	0.036 µM
CC(C)[C@H](NC(=O)c1cc(=O)c2ccccc2[nH]1)C(=O)N[C@@H](Cc1ccccc1)[C@H](O)[C@@H](O)[C@H](Cc1ccccc1)NC(=O)c1cc(=O)c2ccccc2o1	-	0.13 µM
COC(=O)[C@@H]1CCCN1C(=O)[C@H](O)[C@H](Cc1ccccc1)NC(=O)OC(C)(C)C	-	>>50 µM
CC(C)N(CC(=O)N(CC(=O)NC[C@]1(O)C2C3C4C2[C@](O)(CC(N)=O)C2C1[C@@H]3C[C@@H]42)Cc1ccccc1)C(=O)CN(C)C(=O)OCc1ccccc1	-	0.5 µM
O=C(NC(CO)NC(=O)C1Cc2ccccc2CN1C(=O)OCC1c2ccccc2-c2ccccc21)OCC1c2ccccc2-c2ccccc21	-	4.1 µM
CC(=O)N[C@@H](Cc1c[nH]c2ccccc12)C(=O)N[C@H](C(=O)N[C@@H](Cc1ccccc1)[C@H](O)[C@@H](O)[C@H](Cc1ccccc1)NC(=O)[C@@H](NC(C)=O)C(C)C)C(C)C	-	0.005 µM

For reference, 2 entries again:

compound,conditions,value
CC(=O)N[C@@H](Cc1c[nH]c2ccccc12)C(=O)N[C@@H](CO)C(=O)N[C@@H](Cc1ccccc1)[C@H](O)[C@@H](O)[C@H](Cc1ccccc1)NC(=O)c1cc(=O)c2ccccc2[nH]1,-,4 µM
CC(C)(C)OC(=O)N[C@@H](Cc1ccccc1)C(=O)NC(CCO)NC(=O)[C@H](Cc1ccccc1)NC(=O)OC(C)(C)C,-,>10 µM